The source of these data is article PMC3001473 (PLoS ONE, 2010).

This experiment addresses LcrV (V antigen) of Yersinia pestis (Yersinia pestis) (UniProt P0C7U7). Nature of the experiment: SPR.

Consider “IFNγ mutant S1 (from UniProt P01579 24-161) (ligand)”, for which the maximum response (RU) at 4 µg/mL turned out to be 175 RU.
